{"source": "paper PMC3136475", "about": "“Dual Chaperone Role of the C-Terminal Propeptide in Folding and Oligomerization of the Pore-Forming Toxin Aerolysin” (PLoS Pathogens, 2011)", "proteins": {"B1": {"name": "aerolysin (mature toxin obtained by trypsin cleavage of proaerolysin) (natural protein)", "chain": "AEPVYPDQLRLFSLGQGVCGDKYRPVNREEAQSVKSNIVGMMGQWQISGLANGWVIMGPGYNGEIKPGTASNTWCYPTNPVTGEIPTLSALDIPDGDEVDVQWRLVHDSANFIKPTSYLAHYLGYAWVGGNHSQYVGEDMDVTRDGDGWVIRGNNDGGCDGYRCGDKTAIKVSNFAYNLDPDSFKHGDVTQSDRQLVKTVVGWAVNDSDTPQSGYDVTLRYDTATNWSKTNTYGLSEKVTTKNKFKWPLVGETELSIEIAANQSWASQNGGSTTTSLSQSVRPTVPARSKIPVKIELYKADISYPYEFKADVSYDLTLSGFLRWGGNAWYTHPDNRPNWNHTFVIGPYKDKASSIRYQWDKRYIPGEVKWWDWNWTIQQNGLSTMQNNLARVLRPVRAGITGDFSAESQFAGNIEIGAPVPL", "notes": "also called trypsin-processed toxin; CTP-free aerolysin"}}, "biological_target": "the molecule itself", "assay": "oligomerization followed by SDS-PAGE and Coomassie staining", "data": [{"protein": "B1", "values": [{"measurement": "binding result", "value": "binds"}]}]}
